Values quoted from earlier work in patent US8784929B2 (priority 2007, dated 2014).

Target: αHL-M113F-D8 (Staphylococcus aureus, UniProt P09616, G156S/I168L/K34A/M139F/N165Q/V150L)
Conditions: cited from earlier work

β-cyclodextrin
binding of β-cyclodextrin (in words): binds β-cyclodextrin strongly
mean dwell time (voltage-dependent): approximately 10 seconds
